Source: PubChem BioAssay AID1053175 (ICCB-Longwood Screening Facility, Harvard Medical School, 2014)
Only a part is listed here, and it is no random draw. Some salts or complexes appear as unconnected parts, following the source record. Calls of active or inactive are those of the source.

Experiment: E. coli growth inhibition, primary screen, OD600 (AID 1053175)
Conditions: Escherichia coli growth, OD600, 23 h; stronger effect = lower value

Row | SMILES | OD600 absorbance
1 | COP1(=S)c2c(C)nn(CCC#N)c2N=C(c2ccc(F)cc2)N1C (stereo unspecified) | inactive: 0.628
2 | CP(=O)(Oc1ccccc1)OC(c1ccccc1)C(F)(F)F (stereo unspecified) | inactive: 0.693
3 | CCc1ccc(OP(C)(=O)N2CCN(c3ccc([N+](=O)[O-])cc3)CC2)cc1 (stereo unspecified) | inactive: 0.635
4 | O=C(COc1ccccc1)OC1CN2CCC1CC2 (stereo unspecified) | inactive: 0.731
5 | CP(=O)(NC(=O)Nc1ccccc1)Oc1ccccc1 (stereo unspecified) | inactive: 0.69
6 | Cc1cc(C)cc(OP(C)(=O)Nc2ccc(SC(F)(F)F)cc2)c1 (stereo unspecified) | inactive: 0.698
7 | O=C(Nc1ccncc1[N+](=O)[O-])c1ccc([N+](=O)[O-])cc1[N+](=O)[O-] | inactive: 0.635
8 | CCOC(=O)c1ccc(NP(C)(=O)Oc2ccc(OC)cc2)cc1 (stereo unspecified) | inactive: 0.677
9 | CCOC(=O)c1ccc(NC(=O)C(C)(CCl)SC)cc1 (stereo unspecified) | inactive: 0.673
10 | O=[N+]([O-])c1cc([N+](=O)[O-])c(O)c([N+](=O)[O-])c1.c1ccc(Oc2ccncc2)cc1 | inactive: 0.617
11 | O=C(OC1CN2CCC1CC2)c1cccc([N+](=O)[O-])c1 (stereo unspecified) | inactive: 0.683
12 | CCOP(C)(=S)SCC(=O)NC(C)C(=O)O (stereo unspecified) | inactive: 0.729
13 | CP(=O)(Nc1ccccn1)Oc1ccc(Cl)cc1 (stereo unspecified) | inactive: 0.675
14 | CCC(C)N(CC(C)C)C(=S)SC(NC(C)=O)C(Cl)(Cl)Cl (stereo unspecified) | inactive: 0.693
15 | CC1CCNP(=O)(N(CCCl)CCCl)O1 (stereo unspecified) | inactive: 0.676
16 | CCOC(=O)Nc1ccc([As](=O)(O)O)c(O)c1 | inactive: 0.699
17 | CCCCOc1ccc(C(=O)NCC2(N3CCCCC3)CCCCC2)cc1OC | inactive: 0.66
18 | COc1ccc(NC(=NP(=O)(N2CCOCC2)N2CCOCC2)N2CCOCC2)cc1 | inactive: 0.719
19 | Cc1cc(SC(NC(=O)c2ccccc2)C(Cl)(Cl)Cl)nc(C(C)C)n1 (stereo unspecified) | inactive: 0.716
20 | CCOC(=O)Nc1cccc([As](=O)(O)O)c1 | inactive: 0.677
21 | CP(=S)(Nn1cnnc1)Oc1ccccc1 (stereo unspecified) | inactive: 0.791
22 | CP(=O)(Nc1ccccc1Br)Oc1ccccc1 (stereo unspecified) | inactive: 0.644
23 | O=[N+]([O-])c1ccc(Nc2ccc(Oc3ccc([N+](=O)[O-])cc3[N+](=O)[O-])cc2)c([N+](=O)[O-])c1 | inactive: 0.71
24 | O=P(Nc1ccccn1)(c1cccc2ccccc12)c1cccc2ccccc12 | inactive: 0.695
25 | Cc1cc(SC(NC=O)C(Cl)(Cl)Cl)ncn1 (stereo unspecified) | inactive: 0.723
26 | COc1ccccc1OP(C)(=O)Nc1ccccc1 (stereo unspecified) | inactive: 0.706

Row | SMILES | OD600 absorbance
27 | O=[As](O)(c1ccc(O)cc1)c1ccccc1O | inactive: 0.686
28 | C[As](=O)(O)c1cccc(C(=O)O)c1 | inactive: 0.643
29 | COc1cc(C(=O)NCC2(N3CCOCC3)CCCCC2)ccc1OCC(C)C | inactive: 0.668
30 | O=[N+]([O-])c1ccc(-c2cc([N+](=O)[O-])c(O)c([N+](=O)[O-])c2)cc1 | inactive: 0.641
31 | CCCC(C)(O)C1CC23C=CC1(OC)C1Oc4c(O)ccc5c4[C@@]12CCN(C)[C@@H]3C5 (stereo partly specified) | inactive: 0.732
32 | O=[N+]([O-])c1cc([N+](=O)[O-])c(Nc2cccnc2)c([N+](=O)[O-])c1 | inactive: 0.537
33 | Cc1ccc2nc3c(c(C)c2c1)CC(C(Cl)Cl)S3 (stereo unspecified) | inactive: 0.686
34 | O=[N+]([O-])c1ccc2c(c1)C=Nc1ccccc1O2 | inactive: 0.703
35 | CC(C)(C)c1ccc(OP(C)(=O)Nc2ccc(SC(F)(F)F)cc2)cc1 (stereo unspecified) | inactive: 0.677
36 | Cc1ccc(OP(=O)(Nc2ccc([N+](=O)[O-])cn2)Oc2ccc(C)cc2)cc1 | inactive: 0.649
37 | Cc1cccc(C)c1OP(C)(N)=O (stereo unspecified) | inactive: 0.679
38 | COc1ccccc1OP(C)(=O)Nc1ccc(C)cc1 (stereo unspecified) | inactive: 0.666
39 | CC(C)c1ccc(OP(=O)(Nc2ccccn2)Oc2ccccc2F)cc1 (stereo unspecified) | inactive: 0.625
40 | Cc1ccc(NP(C)(=O)Oc2ccccc2)c(C)c1 (stereo unspecified) | inactive: 0.715
41 | CCOC(=O)c1ccc(NP(C)(=O)Oc2ccccc2)cc1 (stereo unspecified) | inactive: 0.667
42 | COc1ccc2c(c1O)-c1c(O)c(OC)cc3c1C(C2)[N+](C)(C)CC3.O=[N+]([O-])c1cc([N+](=O)[O-])c([O-])c([N+](=O)[O-])c1[O-] (stereo unspecified) | inactive: 0.684
43 | ClCCSc1nnc(-c2cccnc2)o1 | inactive: 0.691
44 | Cc1cc(C)cc(OP(C)(N)=O)c1 (stereo unspecified) | inactive: 0.674
45 | O=C(OC1CN2CCC1CC2)c1cccc2[nH]cnc12 (stereo unspecified) | inactive: 0.642
46 | CCN(CC)C(=S)SC(NC=O)C(Cl)(Cl)Cl (stereo unspecified) | inactive: 0.737
47 | COc1ccccc1OP(C)(=O)Nc1cc(Cl)ccc1C (stereo unspecified) | inactive: 0.661
48 | CC(C)NC(=O)NP(=O)(Oc1ccccc1)Oc1ccccc1 | inactive: 0.672
49 | COc1ccc(OP(C)(=O)Nc2cccc(F)c2)cc1 (stereo unspecified) | inactive: 0.691
50 | O=C(OC1CN2CCC1CC2)C12CC3CC(CC(C3)C1)C2 (stereo unspecified) | inactive: 0.72
51 | CCN(CC)CCCOC(=O)C(O)(c1ccccc1)c1ccccc1 | inactive: 0.654
52 | Cc1cc(=O)[nH]c(N[N+](=O)[O-])n1 | inactive: 0.655

Row | SMILES | OD600 absorbance
53 | Cc1c2c(nc3ccccc13)SC(C(Cl)Cl)C2 (stereo unspecified) | inactive: 0.682
54 | COc1ccc2nc(NP(=O)(c3ccccc3)c3ccccc3)sc2c1 | inactive: 0.68
55 | COc1cc(I)ccc1[As](=O)(O)O | inactive: 0.654
56 | O=P1(N(CCCl)CCCl)Nc2ccccc2N1 | inactive: 0.655
57 | CCC(CO)(C(=O)OC1CN2CCC1CC2)c1ccccc1 (stereo unspecified) | inactive: 0.688
58 | NC(=O)c1cc([N+](=O)[O-])cc([N+](=O)[O-])c1N | inactive: 0.717
59 | COc1ccccc1OP(C)(=O)Nc1ccc(Br)cc1 (stereo unspecified) | inactive: 0.668
60 | COc1ccc(OP(C)(=O)Nc2ccccn2)cc1 (stereo unspecified) | inactive: 0.67
61 | COc1ccccc1OP(=O)(Nc1ccc(C)cn1)Oc1ccccc1OC | inactive: 0.696
62 | Cc1ccc(OP(=O)(Nc2nccs2)Oc2ccc(C)cc2)cc1 | inactive: 0.698
63 | Clc1ccc(Cl)c(NC2=NCC(CBr)S2)c1 (stereo unspecified) | inactive: 0.695
64 | CN(C)CCOC(=O)C(O)(c1ccccc1)C1CCCC1 (stereo unspecified) | inactive: 0.727
65 | CN1CCCC(OC(=O)C(c2ccccc2)c2ccccc2)C1 (stereo unspecified) | inactive: 0.698
66 | CC(C)CC(=O)NC(Sc1ccc(Cl)cc1)C(Cl)(Cl)Cl (stereo unspecified) | inactive: 0.677
67 | O=[N+]([O-])c1cc([N+](=O)[O-])c(Nc2ccccn2)c([N+](=O)[O-])c1 | inactive: 0.655
68 | Cc1c(NP(C)(=O)Oc2ccc(C(C)C)cc2)c(=O)n(-c2ccccc2)n1C (stereo unspecified) | inactive: 0.696
69 | Nc1cc(N)c2nonc2c1[N+](=O)[O-] | inactive: 0.693
70 | Oc1ccccc1CNc1ccccn1 | inactive: 0.662
71 | O=C(NC(Sc1ccncn1)C(Cl)(Cl)Cl)c1ccccc1 (stereo unspecified) | inactive: 0.636
72 | CP(=O)(Nc1ccccn1)Oc1ccccc1 (stereo unspecified) | inactive: 0.676
73 | COc1ccccc1OP(C)(=O)Nc1ccc(C)cc1C (stereo unspecified) | inactive: 0.694
74 | CCc1ccc(OP(C)(=O)O)cc1 | inactive: 0.678
75 | CC(=O)Nc1ccc([As](=O)(O)O)cc1 | inactive: 0.672
76 | CCCC1OP(N)(=O)OCC1CC (stereo unspecified) | inactive: 0.723
77 | CCN(CC)CC(C)C(C)OC(=O)C(O)(c1ccccc1)c1ccccc1 (stereo unspecified) | inactive: 0.648
78 | O=C1C(O)=C([N+](=O)[O-])C(=O)C(O)=C1[N+](=O)[O-] | inactive: 0.67

Row | SMILES | OD600 absorbance
79 | Cc1cc(C)cc(OP(C)(=O)Nc2cccc(C(F)(F)F)c2)c1 (stereo unspecified) | inactive: 0.651
80 | O=P(Nc1nc2ccc(Cl)cc2s1)(c1ccccc1)c1ccccc1 | inactive: 0.646
81 | CCOP(=O)(Nc1ccccc1)OCC | inactive: 0.713
82 | Cc1cc(SC(NC(=O)c2ccc(F)cc2)C(Cl)(Cl)Cl)ncn1 (stereo unspecified) | inactive: 0.72
83 | Cc1ccc(NP(=O)(Oc2ccccc2F)Oc2ccccc2F)nc1 | inactive: 0.628
84 | COc1ccccc1OP(C)(=O)Nc1ccc(C)c(C)c1 (stereo unspecified) | inactive: 0.731
85 | CC(C)=NN=C(N)N[N+](=O)[O-] | inactive: 0.69
86 | CC(C)N1C(=O)CC2(CCN(CCOC(=O)C(O)(c3ccccc3)c3ccccc3)CC2)C1=O | inactive: 0.761
87 | CCN(N=Nc1nonc1N)c1nonc1N | inactive: 0.705
88 | CP(=O)(Nc1ccc(Cl)cc1Cl)Oc1ccccc1 (stereo unspecified) | inactive: 0.695
89 | Nc1ccc2c(ccc3cccnc32)n1.O=[N+]([O-])c1cc([N+](=O)[O-])c(O)c([N+](=O)[O-])c1 | inactive: 0.599
90 | O=P1(N(CCCl)CCCl)OCCCS1 (stereo unspecified) | inactive: 0.672
91 | O=C(Nc1cc([As](=O)(O)O)ccc1O)c1ccccc1 | inactive: 0.682
92 | CP(=O)(OC12CC3CC(CC(C3)C1)C2)OC12CC3CC(CC(C3)C1)C2 | inactive: 0.679
93 | CC(C)(C)C(=O)NC(Sc1ccncn1)C(Cl)(Cl)Cl (stereo unspecified) | inactive: 0.65
94 | O=[N+]([O-])c1ncn(CCn2ncnc2[N+](=O)[O-])n1 | inactive: 0.657
95 | O=[N+]([O-])c1cccc(NC2=NCC(CBr)S2)c1 (stereo unspecified) | inactive: 0.675
96 | O=C(O)CNc1ccc([As](=O)(O)O)cc1 | inactive: 0.662
97 | CCN(CC)CC(O)COC(=O)C(O)(c1ccccc1)C1CCCCC1 (stereo unspecified) | inactive: 0.682
98 | COc1ccc(C2=NCC(CBr)S2)cc1 (stereo unspecified) | inactive: 0.716
99 | COc1ccc(OP(C)(=O)Nc2ccc(Br)cc2)cc1 (stereo unspecified) | inactive: 0.684
100 | COc1ccccc1OP(C)(=O)Nc1c(C)n(C)n(-c2ccccc2)c1=O (stereo unspecified) | inactive: 0.737
101 | O=[N+]([O-])c1cccc2n[nH]nc12 | inactive: 0.605
